Test results taken from article PMC11325505, “Nitrogen-Containing Flavonoids—Preparation and Biological Activity” (ACS Omega, 2024).

Tested on: RAW 264.7 cells
Test: Cellular antioxidant activity (CAA)
Assay type: cell-based, Murine
Conditions: CAA in macrophages; vs quercetin or luteolin
Protocol: To evaluate the antioxidant activity of the prepared derivatives and the respective parent compounds, cellular antioxidant activity (CAA) was measured in macrophages. Compared to other in vitro antioxidant assays, this method provides partial information about the uptake and metabolism of the compounds, because, in this assay, they must first enter the cell to exert antioxidant activity.[31] […] Derivatization of quercetin at C-8 with 4-fluoroaniline (5) increased the antioxidant activity of quercetin by 1.7-fold. […] The concentration of these derivatives required to halve the cellular radicals decreased 1.5-fold compared to luteolin.
Cellular antioxidant capacity was evaluated as previously described.[31],[39] Briefly, 100 μL of RAW 264.7 cells with a density corresponding to 1 × 10^6 cells/mL were split into 96-well plates. After 24 h, cells were washed with PBS, and DMEM supplemented with DCFH-DA (0.0125 mg/mL) was added to each well together with the tested samples in the concentration range of 1.5–200 μM. After 1 h incubation in a CO2 incubator, the medium was replaced with AAPH solution (0.16 mg/mL in PBS), and fluorescence was immediately recorded (ex./em. 485/540 nm) for 2 h in 5 min intervals.

| SMILES | improvement of antioxidant activity (decrease of the concentration halving cellular radicals) compared to the parent compound |
| --- | --- |
| O=c1c(O)c(-c2ccc(O)c(O)c2)oc2c(Nc3ccc(F)cc3)c(O)cc(O)c12 [compound 5, 2-(3,4-Dihydroxyphenyl)-8-(4-fluoroanilino)-3,5,7-trihydroxy-4H–1-benzopyran-4-one] | 1.7 fold |
| O=c1cc(-c2ccc(O)c(O)c2)oc2c(Nc3ccc(F)cc3)c(O)cc(O)c12 [compound 11, 2-(3,4-Dihydroxyphenyl)-8-(4-fluoroanilino)-5,7-dihydroxy-4H–1-benzopyran-4-one] | 1.5 fold |
| O=c1cc(-c2ccc(O)c(O)c2)oc2c(Nc3ccccc3)c(O)cc(O)c12 [compound 13, 2-(3,4-Dihydroxyphenyl)-8-(anilino)-5,7-dihydroxy-4H–1-benzopyran-4-one] | 1.5 fold |
